Anti-infective test results gathered from many reports (values: NIAID ChemDB through PubChem).

Common to all: whole-cell or culture tests

A number after MIC or MFC names an inhibition level or a share of isolates. a–b is a range or a potency band. Zone: diameter of growth inhibition. Percent inhibition refers to the dose given; in toxicity tests it is the harm to the cells. Rows are shuffled and stem from different studies.

{"SMILES": "C[C@@H]1CN(c2c(F)c(N)c3c(=O)c(C(=O)O)cn(C4CC4)c3c2F)C[C@H](C)N1", "endpoint": "MIC", "method": "broth dilution", "species": "Mycobacterium avium complex", "strain or isolate": "7", "result": "0.12 µg/mL"}
{"SMILES": "CN(C)c1cc(NC(=O)CNC(C)(C)C)c(O)c2c1C[C@H]1C[C@H]3[C@H](N(C)C)C(=O)C(C(N)=O)=C(O)[C@@]3(O)C(=O)C1=C2O", "endpoint": "MIC", "method": "broth dilution", "species": "Mycobacterium abscessus", "strain or isolate": "X74", "result": "0.5 µg/mL"}
{"SMILES": "COc1c(N2CCNCC2)c(F)cc2c(=O)c(C(=O)O)cn(C3CC3)c12", "endpoint": "MIC99", "species": "Mycobacterium smegmatis", "strain or isolate": "KD1995 (GYRA D95H)", "result": "0.57 µg/mL"}
{"SMILES": "CO[C@H]1/C=C/O[C@@]2(C)Oc3c(C)c(O)c4c(O)c(c(/C=N/N5CCN(C)CC5)c(O)c4c3C2=O)NC(=O)/C(C)=C\\C=C\\[C@H](C)[C@H](O)[C@@H](C)[C@@H](O)[C@@H](C)[C@H](OC(C)=O)[C@@H]1C", "endpoint": "MIC50", "species": "Mycobacterium avium intracellulare", "strain or isolate": "20 isolates", "result": "2 µg/mL"}
{"SMILES": "Cc1nn(-c2ccccc2)c2c1C(c1cn(-c3ccccc3)nc1-c1ccc(Cl)cc1)C1=C(NC(C)(c3cc(O)c(I)cc3Cl)NC1=O)O2", "tested at": "1 mg/mL", "endpoint": "zone", "method": "agar diffusion / agar", "species": "Mycobacterium smegmatis", "strain or isolate": "NCIM 5138", "result": "5.4 mm"}
{"SMILES": "CN[C@@H]1[C@@H](O[C@H]2O[C@H](CO)[C@@H](N)[C@H](O)[C@H]2O)OC2C[C@@H](N)[C@@H](O[C@H]3[C@@H](F)[C@@H](O)[C@H](N)C[C@@H]3N)OC2[C@@H]1O", "endpoint": "MIC", "method": "broth dilution", "species": "Mycobacterium abscessus", "strain or isolate": "L948", "result": "1 µg/mL"}
{"SMILES": "Nc1nc(N)c2c(n1)NC(c1ccc(Cl)cc1)CC(c1ccc3c(c1)OCO3)=N2", "conditions": "clinical isolate", "endpoint": "MIC", "method": "MTT / broth dilution / absorbance", "species": "Mycobacterium szulgai", "strain or isolate": "MNT1100", "result": "32 µg/mL"}
{"SMILES": "COc1c(N2CC(C)NC(C)C2)c(F)cc2c(=O)c(C(=O)O)cn(C3CC3)c12", "endpoint": "MIC99", "species": "Mycobacterium smegmatis", "strain or isolate": "KD1995 (GYRA D95H)", "result": "0.59 µg/mL"}
{"SMILES": "Cc1nn(-c2ccccc2)c2c1C(c1cn(-c3ccccc3)nc1-c1ccc(Cl)cc1)C1=C(NC(C)(c3cc(O)ccc3Cl)NC1=O)O2", "tested at": "0.1 mg/mL", "endpoint": "zone", "method": "agar diffusion / agar", "species": "Mycobacterium smegmatis", "strain or isolate": "NCIM 5138", "result": "1.5 mm"}
{"SMILES": "CCC1CN(c2c(F)cc3c(=O)c(C(=O)O)cn(C4CC4)c3c2F)CCN1", "endpoint": "MIC99", "species": "Mycobacterium smegmatis", "strain or isolate": "KD1990 (GYRA D95A)", "result": "0.67 µg/mL"}
{"SMILES": "Nc1nc(N)c2c(n1)NC(c1ccccc1)CC(c1ccc3c(c1)OCO3)=N2", "conditions": "clinical isolate", "endpoint": "MIC", "method": "MTT / broth dilution / absorbance", "species": "Mycobacterium chelonae", "strain or isolate": "MNT1407", "result": "32 µg/mL"}
{"SMILES": "CCN1CCN(c2c(F)cc3c(=O)c(C(=O)O)cn(C4CC4)c3c2OC)CC1", "endpoint": "MIC99", "species": "Mycobacterium smegmatis", "strain or isolate": "KD2003 (GYRA D95G)", "result": "1 µg/mL"}
{"SMILES": "COc1ccc(-c2nn(-c3ccccc3)cc2C2C3=C(NC(C)(c4cc(O)c(I)cc4Cl)NC3=O)Oc3c2c(C)nn3-c2ccccc2)cc1", "tested at": "0.1 mg/mL", "endpoint": "zone", "method": "agar diffusion / agar", "species": "Mycobacterium phlei", "strain or isolate": "NCIM 2240", "result": "4 mm"}
{"SMILES": "CN[C@@H]1[C@@H](O[C@H]2O[C@H](CO)[C@@H](N)[C@H](O)[C@H]2O)OC2C[C@@H](N)[C@@H](O[C@H]3[C@H](OCCCO)[C@@H](O)[C@H](N)C[C@@H]3N)OC2[C@@H]1O", "endpoint": "MIC", "method": "broth dilution", "species": "Mycobacterium abscessus", "strain or isolate": "L948", "result": "8 µg/mL"}
{"SMILES": "CO[C@H]1/C=C/O[C@@]2(C)Oc3c(C)c(O)c4c(O)c(c(N5CCN(Cc6c(C)cc(C)cc6C)CC5)c(O)c4c3C2=O)NC(=O)/C(C)=C\\C=C\\[C@H](C)[C@H](O)[C@@H](C)[C@@H](O)[C@@H](C)[C@H](OC(C)=O)[C@@H]1C", "endpoint": "MBC", "species": "Mycobacterium avium", "strain or isolate": "211-5", "result": ">16 µg/mL"}
{"SMILES": "CN[C@@H]1[C@@H](O[C@H]2O[C@H](CO)[C@@H](N)[C@H](O)[C@H]2O)OC2C[C@@H](N)[C@@H](O[C@H]3[C@H](OC4O[C@H](CN)[C@@H](OCCN)[C@H]4O)[C@@H](O)[C@H](N)C[C@@H]3N)OC2[C@@H]1O", "endpoint": "MIC", "method": "broth dilution", "species": "Mycobacterium abscessus", "strain or isolate": "L948", "result": "1 µg/mL"}
{"SMILES": "COc1c(N2CCNC(C)C2)c(F)cc2c(=O)c(C(=O)O)cn(C3CC3)c12", "endpoint": "MIC99", "species": "Mycobacterium smegmatis", "strain or isolate": "KD2008 (GYRA G89C)", "result": "0.73 µg/mL"}
{"SMILES": "Cc1nn(-c2ccccc2)c2c1C(c1cn(-c3ccccc3)nc1-c1ccc(F)cc1)C1=C(NC(C)(c3cc(O)ccc3Cl)NC1=O)O2", "tested at": "0.5 mg/mL", "endpoint": "zone", "method": "agar diffusion / agar", "species": "Mycobacterium smegmatis", "strain or isolate": "NCIM 5138", "result": "2.2 mm"}
{"SMILES": "Nc1nc(N)c2c(n1)NC(c1ccc3c(c1)OCO3)CC(c1ccccc1)=N2", "conditions": "clinical isolate", "endpoint": "MIC", "method": "MTT / broth dilution / absorbance", "species": "Mycobacterium scrofulaceum", "strain or isolate": "MNT1193", "result": ">32 µg/mL"}
{"SMILES": "CN[C@@H]1[C@@H](O[C@H]2O[C@H](CO)[C@@H](N)[C@H](O)[C@H]2O)OC2C[C@@H](N)[C@@H](O[C@H]3[C@H](O)[C@@H](OCCO)[C@H](N)C[C@@H]3N)OC2[C@@H]1O", "endpoint": "MIC", "method": "broth dilution", "species": "Mycobacterium abscessus", "strain or isolate": "L948", "result": "2 µg/mL"}
{"SMILES": "CSC(=S)N/N=C(\\C)c1ccc(OCc2ccc(F)cc2F)cc1", "endpoint": "MIC", "method": "resazurin / absorbance", "species": "Mycobacterium marinum", "strain or isolate": "Strain M", "result": ">100 µM"}
{"SMILES": "CC1CN(c2cc3c(cc2F)c(=O)c(C(=O)O)cn3C2CC2)CC(C)N1", "endpoint": "MIC99", "species": "Mycobacterium smegmatis", "strain or isolate": "KD1987 (GYRA A91V)", "result": "0.98 µg/mL"}
{"SMILES": "CN[C@@H]1[C@@H](O[C@H]2O[C@H](CO)[C@@H](N)[C@H](O)[C@H]2O)OC2C[C@@H](N)[C@@H](O[C@H]3[C@H](OC4O[C@H](CO)[C@@H](O)[C@H]4O)[C@@H](O)[C@H](N)C[C@@H]3N)OC2[C@@H]1O", "endpoint": "MIC", "method": "broth dilution", "species": "Mycobacterium abscessus", "strain or isolate": "L948", "result": "16 µg/mL"}
{"SMILES": "CO[C@H]1/C=C/O[C@@]2(C)Oc3c(C)c(O)c4c(O)c(c(/C=N/N5CCN(C)CC5)c(O)c4c3C2=O)NC(=O)/C(C)=C\\C=C\\[C@H](C)[C@H](O)[C@@H](C)[C@@H](O)[C@@H](C)[C@H](OC(C)=O)[C@@H]1C", "tested at": "5 µg/mL", "endpoint": "inhibition", "species": "Mycobacterium avium intracellulare", "strain or isolate": "Serovar 8", "result": "77%"}
{"SMILES": "CC[C@H]1OC(=O)[C@H](C)[C@@H](O[C@H]2C[C@@](C)(OC)[C@@H](O)[C@H](C)O2)[C@H](C)[C@@H](O[C@@H]2O[C@H](C)C[C@H](N(C)C)[C@H]2O)[C@](C)(OC)C[C@@H](C)C(=O)[C@H](C)[C@@H](O)[C@]1(C)O", "endpoint": "MIC", "method": "broth dilution", "species": "Mycobacterium abscessus", "strain or isolate": "V206", "result": "4 µg/mL"}
{"SMILES": "COc1ccc(C2CC(c3ccc4c(c3)OCO4)=Nc3c(N)nc(SC)nc3N2)cc1", "conditions": "clinical isolate", "endpoint": "MIC", "method": "MTT / broth dilution / absorbance", "species": "Mycobacterium scrofulaceum", "strain or isolate": "MNT1193", "result": ">32 µg/mL"}
{"SMILES": "CN[C@@H]1[C@@H](O[C@H]2O[C@H](CO)[C@@H](N)[C@H](O)[C@H]2O)OC2C[C@@H](N)[C@@H](O[C@H]3[C@H](OC4O[C@H](CN)[C@@H](O)[C@H]4O)[C@@H](O)[C@H](N)C[C@@H]3N)OC2[C@@H]1O", "endpoint": "MIC", "method": "broth dilution", "species": "Mycobacterium abscessus", "strain or isolate": "L948", "result": "1–2 µg/mL"}
{"SMILES": "CC1CN(c2cc3c(cc2F)c(=O)c(C(=O)O)cn3C2CC2)CCN1", "endpoint": "MIC99", "species": "Mycobacterium smegmatis", "strain or isolate": "KD1990 (GYRA D95A)", "result": "1.2 µg/mL"}
{"SMILES": "Nc1nc(N)c2c(n1)NC(c1ccc(C(F)(F)F)cc1)CC(c1ccc3c(c1)OCO3)=N2", "conditions": "clinical isolate", "endpoint": "MIC", "method": "MTT / broth dilution / absorbance", "species": "Mycobacterium szulgai", "strain or isolate": "MNT1100", "result": "32 µg/mL"}
{"SMILES": "CO[C@H]1/C=C/O[C@@]2(C)Oc3c(C)c(O)c4c(O)c(c5c(c4c3C2=O)NC2(CCN(CC(C)C)CC2)N=5)=NC(=O)/C(C)=C\\C=C\\[C@H](C)[C@H](O)[C@@H](C)[C@@H](O)[C@@H](C)[C@H](OC(C)=O)[C@@H]1C", "endpoint": "MIC", "species": "Mycobacterium avium complex", "strain or isolate": "3090-4", "result": "0.25 µg/mL"}
{"SMILES": "Cc1nn(-c2ccccc2)c2c1C(c1cn(-c3ccccc3)nc1-c1ccc(Cl)cc1)C1=C(NC(C)(c3cc(O)c(Cl)c(O)c3)NC1=O)O2", "tested at": "0.1 mg/mL", "endpoint": "zone", "method": "agar diffusion / agar", "species": "Mycobacterium phlei", "strain or isolate": "NCIM 2240", "result": "2.5 mm"}
{"SMILES": "Nc1nc(N)c2c(n1)NC(c1ccc(F)cc1)CC(c1ccc3c(c1)OCO3)=N2", "conditions": "clinical isolate", "endpoint": "MIC", "method": "MTT / broth dilution / absorbance", "species": "Mycobacterium chelonae", "strain or isolate": "MNT1407", "result": ">32 µg/mL"}